Compound potency records, mixed from different reports. Data source: NIAID ChemDB in PubChem.

All rows: cytotoxicity tests; cell line: MT-4; measure: CC50

Blank or dashed fields: not listed here.

NCCCN1CCCN(CCCN)CCN(CCCN)CCCN(CCCN)CC1 ; value: 50 µM
Nc1ccn([C@@H]2CC(CO)(CO)CO2)c(=O)n1 ; value: >100 µg/mL
Nc1nc2c(ncn2[C@@H]2C[C@H](CO)[C@H]2CO)c(=O)[nH]1 ; value: 29 µM
Nc1nc(F)nc2c1ncn2[C@@H]1O[C@H](CO)[C@H]1O ; value: 5.6 µg/mL
COc1c2c(cc3oc(=O)c4c5ccc(O)cc5oc4c13)OC(C)(C)CC2 ; value: >100 µg/mL
Cc1cc(C#N)cc(C)c1Oc1ccnc(S(=O)(=O)CC(=O)Nc2ccccc2)n1 ; method: MTT ; value: >29.3 µM
NCCCN1CCCN(CCCN)CCCN(CCCN)CCN(CCCN)CCC1 ; value: >50 µM
Cc1cn([C@H]2C[C@H](N=[N+]=[N-])[C@@H](CO)O2)c(=O)[nH]c1=O ; value: 4.24 µM
Cc1cn(C2CC(N=[N+]=[N-])C(COP(=O)(OC[C@H]3O[C@@H](n4cc(C)c(=O)[nH]c4=O)C[C@@H]3N=[N+]=[N-])C(=O)OCCSC(=O)C(C)(C)C)O2)c(=O)[nH]c1=O ; value: >10 µM
CNS(=O)(=O)c1ccc(CN2CCC(/C=N/Nc3nc(Oc4c(C)cc(C#N)cc4C)c4sccc4n3)CC2)cc1 ; method: MTT ; value: 3.82 µM
Nc1nc2c(ncn2C2CC(CO)(CO)C2)c(=O)[nH]1 ; value: >500 µM
COc1ccc(CSc2nc(CC34CC5CC(CC(C5)C3)C4)c(C)c(=O)[nH]2)cc1 ; method: MTT / absorbance ; value: 1.92 µM
CCCCSc1cc(N)nc(Cl)n1 ; value: 114 µM
Cc1cc(C#N)cc(C)c1Oc1nc(N/N=C/C2CCN(Cc3ccc(F)cc3)CC2)nc2ccsc12 ; method: MTT ; value: 5.48 µM
Nc1ccn([C@H]2CO[C@@H](CP(=O)(O)O)O2)c(=O)n1 ; value: >332 µM
CCc1c(Sc2cc(C)cc(C)c2)n(COCc2ccccc2)c(=O)[nH]c1=O ; value: >20 µM
CC(C)=CCOc1ccc([C@@H]2COc3c(ccc4c3C=CC(C)(C)O4)C2)c(O)c1 ; value: 79 µg/mL
Cc1c(CC23CC4CC(CC(C4)C2)C3)nc(SCC(=O)c2ccccc2)[nH]c1=O ; method: MTT / absorbance ; value: >306 µM
Cc1ccnc2c1NC(=O)c1cccnc1N2C1CC1 ; value: >80 µM
NCCCCN1CCCN(CCCCN)CCN(CCCCN)CCCN(CCCCN)CC1 ; value: 50 µM
CCc1c(CC23CC4CC(CC(C4)C2)C3)nc(SCC(=O)Nc2ccc(C)cc2[N+](=O)[O-])[nH]c1=O ; method: MTT / absorbance ; value: 23.16 µM
CCSC[C@H]1O[C@@H](n2cc(C)c(=O)[nH]c2=O)C[C@@H]1N=[N+]=[N-] ; value: 69.2 µg/mL
Cc1cn([C@@H]2CC(CO)(CO)CO2)c(=O)[nH]c1=O ; value: >100 µg/mL
CCCCCCCCOC(=O)P(=O)(OC[C@H]1O[C@@H](n2cc(C)c(=O)[nH]c2=O)C[C@@H]1N=[N+]=[N-])OC[C@H]1O[C@@H](n2cc(C)c(=O)[nH]c2=O)C[C@@H]1N=[N+]=[N-] ; value: >1 µM
CCC(C)(C)c1c(O)cc(O)c2c(=O)c(O)c(-c3cc(O)c4c(c3CC=C(C)C)CCC(C)(C)O4)oc12 ; value: 10 µg/mL
Cc1cc(C#N)cc(C)c1Oc1nc(N/N=C/C2CCN(Cc3ccc([N+](=O)[O-])cc3)CC2)nc2ccsc12 ; method: MTT ; value: 13.4 µM
Nc1nc2c(ncn2[C@H]2CO[C@H](CP(=O)(O)O)O2)c(=O)[nH]1 ; value: >332 µM
CCc1c(CC23CC4CC(CC(C4)C2)C3)nc(SCC(=O)Nc2ccc(C#N)cc2)[nH]c1=O ; method: MTT / absorbance ; value: 5.49 µM
CC(C)(C)C(=O)SCCOC(=O)P(=O)(OCCSC(=O)C(C)(C)C)OCCSC(=O)C(C)(C)C ; value: >10 µM
c1cc(CN2CCCNCCNCCCNCC2)ccc1CN1CCCNCCNCCCNCC1 ; value: >300 µM
Nc1nc2c(ncn2[C@H]2CO[C@@H](CP(=O)(O)O)O2)c(=O)[nH]1 ; value: >332 µM
COc1ccc(-c2coc3cc(O)c(CC=C(C)C)c(O)c3c2=O)cc1O ; value: >100 µg/mL
Cc1cn([C@H]2C[C@H](N=[N+]=[N-])[C@@H](CO)O2)c(=O)[nH]c1=O ; value: 7.8 µM
CCC(C)Oc1nc(N)cc(Sc2cccc(C)c2)n1 ; value: 115 µM
Cc1cn([C@H]2C=C[C@@H](CO)O2)c(=O)[nH]c1=O ; value: 15 µM
Nc1ncnc2c1ncn2[C@@H]1O[C@H](CO)[C@H]1CO ; value: 23 µg/mL
CCOCn1c(Cc2cc(C)cc(C)c2)c(CC)c(=O)[nH]c1=O ; value: 249 µM
CCCCSc1nc(Sc2ccccc2)cc(=O)[nH]1 ; value: ≥200 µM
Cc1cn([C@H]2C[C@H](N=[N+]=[N-])[C@@H](COP(=O)(O)C(=O)OCCSC(=O)C(C)(C)C)O2)c(=O)[nH]c1=O ; value: >100 µM
Cc1cc(C#N)cc(C)c1Oc1nc(N/N=C/C2CCN(Cc3ccc(S(=O)(=O)NC4CC4)cc3)CC2)nc2ccsc12 ; method: MTT ; value: 4.03 µM
c1ccc(CNCCCCCN2CCCN(CCCCCNCc3ccccc3)CCCN(CCCCCNCc3ccccc3)CCN(CCCCCNCc3ccccc3)CCC2)cc1 ; value: 10 µM
CCC(C)Oc1cc(N)nc(Sc2ccc(Cl)cc2N)n1 ; value: 88 µM
COCOc1ccc(C2CC(=O)c3c(O)cc(OCOC)cc3O2)c(OCOC)c1 ; value: >100 µg/mL
Nc1cc(S(=O)(=O)c2ccccc2)nc(Cl)n1 ; value: 10 µM
O=c1ccccc(-c2cncnc2)c1O ; method: MTT ; value: 29 µM
CCC(C)Oc1cc(=O)[nH]c(Sc2ccccc2OC)n1 ; value: 168 µM
CCOCn1c(Sc2cc(C)cc(C)c2)c(CC)c(=O)[nH]c1=O ; value: >100 µM

Repeating the final 3 entries:

SMILES,method,value
O=c1ccccc(-c2cncnc2)c1O,MTT,29 µM
CCC(C)Oc1cc(=O)[nH]c(Sc2ccccc2OC)n1,-,168 µM
CCOCn1c(Sc2cc(C)cc(C)c2)c(CC)c(=O)[nH]c1=O,-,>100 µM

Rows are shuffled and stem from different studies. CCn: concentration that lowers growth or viability of the cells by n%.